Pooled drug test results. Numbers come from NIAID ChemDB, via PubChem.

Common to all: growth or infection tests; agent: Hepatitis B virus; cells: HepG2.117; read-out: EC50

ECn: concentration that inhibits the pathogen or its effect by n%.

CC(C)NC(=O)c1ccc(-n2c(=O)c3c(n4ncc(Cc5ccccc5)c24)CN(C(=O)c2ccc(Br)c(C#N)c2)CC3)cc1 ; read by: PCR ; setting: 3 d ; result: 0.5–5 µM
CCC[C@H]1Cc2c(n3ncc(Cc4ccccc4)c3n(-c3ccc4c(NC)n[nH]c4c3)c2=O)CN1C(=O)c1ccc(Br)c(C(F)(F)F)c1 ; read by: luminescence ; result: ≤0.05 µM
C[C@H](c1ccccc1)c1cnc([C@]2(F)CN(C(=O)c3ccc(Br)c(Cl)c3)CCS2(=O)=O)s1 ; read by: PCR ; result: 0.5–5 µM
CC(=O)Nc1ccc([C@H](C)N2CCn3nc4c(c3C2=O)CN(C(=O)c2ccc(Cl)c(Cl)c2)[C@H](C)C4)cc1 ; read by: PCR ; result: 0.044 µM
C[C@@H]1Cn2c(c(C(=O)N[C@H](C)c3ccccc3F)n(-c3ccc(OC4CC4)cc3)c2=O)CN1C(=O)c1ccc(Br)c(Cl)c1 ; read by: PCR ; result: 0.5–5 µM
Cc1cc(C)n(-c2nc3c(c(=O)n2-c2ccc(NC[C@H](O)CO)nc2)C[C@@H](C)N(C(=O)c2ccc(Br)c(C(F)(F)F)c2)C3)n1 ; strain or isolate: Genotype D ; read by: PCR ; result: 0.05–0.5 µM
C=C[C@H](C)Nc1nc2c(c(=O)n1-c1ccc(C(=O)N(C)C(=O)OCOP(=O)(O)O)cc1)C[C@@H](C)N(C(=O)c1ccc(Br)c(C(F)(F)F)c1)C2 ; strain or isolate: Genotype D ; read by: PCR ; result: <0.05 µM
C[C@@H]1Cc2nn3c(c2CN1C(=O)c1ccc(Cl)c(C#N)c1)C(=O)N([C@H](C)c1cccc(C(F)(F)F)c1)CC3 ; read by: PCR ; result: 0.143 µM
O=C(NCc1ccccc1-c1cocn1)c1c2n(c(=O)n1-c1ccc(OCC(F)(F)F)cc1)CCN(C(=O)c1ccc(Br)c(Cl)c1)C2 ; read by: PCR ; result: 0.1–0.5 µM
Cc1nc(-c2ccc(-n3c(=O)c4c(n5ncc(CC(C)C)c35)CN(C(=O)c3ccc(Br)c(C(F)(F)F)c3)[C@@H](C)C4)cc2)n[nH]1 ; read by: luminescence ; result: 0.05–0.5 µM
C[C@H](NC(=O)c1c2n(c(=O)n1-c1ccc(OCC(F)(F)F)cc1)CCN(C(=O)c1ccc(Br)c(Cl)c1)C2)c1ccccc1F ; read by: PCR ; result: 0.5–5 µM
C=C[C@H](C)Nc1nc2c(c(=O)n1-c1ccc(C(=O)NC)cc1)C[C@@H](C)N(C(=O)c1ccc(Br)c(C(F)(F)F)c1)C2 ; strain or isolate: Genotype D ; read by: PCR ; result: <0.05 µM
Cc1cc(C)n(-c2nc3c(c(=O)n2-c2ccc(N4CCNCC4)nc2)C[C@@H](C)N(C(=O)c2ccc(Br)c(C(F)(F)F)c2)C3)n1 ; strain or isolate: Genotype D ; read by: PCR ; result: ≤0.05 µM
CNC(=O)c1ccc(-n2c(=O)c3c(n4ncc(NCc5ccc(OC(F)F)cc5)c24)CN(C(=O)c2ccc(Cl)c(Cl)c2)CC3)cc1 ; read by: PCR ; setting: 3 d ; result: 0.5–5 µM
O=C(NCc1ccccc1)c1c2n(c(=O)n1-c1ccc(N3CCC(F)(F)C3)cc1)CCN(C(=O)c1ccc(Br)c(Cl)c1)C2 ; read by: PCR ; result: 0.1–0.5 µM
CC(C)Cc1cnn2c3c(c(=O)n(-c4ccc5c(c4)nnn5C)c12)C[C@H](C)N(C(=O)c1ccc(Br)c(C(F)(F)F)c1)C3 ; read by: luminescence ; result: 0.05–0.5 µM
C[C@@H]1Cc2nn3c(c2CN1C(=O)c1ccc(Cl)c(C#N)c1)C(=O)N([C@@H](C)c1ccc(C(F)(F)F)cc1)CC3 ; read by: PCR ; result: 0.31 µM
Cc1cc(C)n(-c2nc3c(c(=O)n2-c2ccc(N4CC(O)C4)nc2)C[C@@H](C)N(C(=O)c2ccc(Br)c(C(F)(F)F)c2)C3)n1 ; strain or isolate: Genotype D ; read by: PCR ; result: ≤0.05 µM
C[C@@H]1CS(=O)(=O)[C@@](F)(c2ncc(Cc3ccccc3)s2)CN1C(=O)c1ccc(Br)c(Cl)c1 ; read by: PCR ; result: <0.1 µM
Cc1cnn(-c2ccc(-n3c(=O)c4c(n5ncc(Cc6ccccc6)c35)CN(C(=O)c3ccc(Br)c(C(F)(F)F)c3)[C@H](C)C4)cc2)n1 ; read by: luminescence ; result: ≤0.05 µM
O=C(c1ccc(Br)c(Cl)c1)N1CCS(=O)(=O)[C@@](F)(c2ncc(-c3ccccc3)s2)C1 ; read by: PCR ; result: 0.5–5 µM
Cc1cc(C)n(-c2nc3c(c(=O)n2-c2ccc(NC[C@H](C)O)nc2)C[C@@H](C)N(C(=O)c2ccc(Br)c(C(F)(F)F)c2)C3)n1 ; strain or isolate: Genotype D ; read by: PCR ; result: ≤0.05 µM
O=C(O[C@@H]1Cc2c(O)cc(O)cc2O[C@@H]1c1cc(O)c(O)c(O)c1)c1cc(O)c(O)c(O)c1 ; read by: ELISA ; result: 39.4 µM
Cc1cc(C)n(-c2nc3c(c(=O)n2-c2cc(F)c4ncn(C)c4c2)C[C@@H](C)N(C(=O)c2ccc(Br)c(C(F)(F)F)c2)C3)n1 ; strain or isolate: Genotype D ; read by: PCR ; result: ≤0.05 µM
CNC(=O)c1ccc(-n2c(=O)c3c(n4ncc(Cc5ccc(C#N)cc5F)c24)CN(C(=O)c2ccc(Br)c(C#N)c2)CC3)cc1 ; read by: PCR ; setting: 3 d ; result: 0.5–5 µM
CNC(=O)c1ccc(-n2c(N(Cc3ccccc3)C3CN(C)C3)nc3c(c2=O)C[C@@H](C)N(C(=O)c2ccc(Br)c(C(F)(F)F)c2)C3)cc1 ; read by: PCR ; result: >0.5 µM
CNC(=O)c1ccc(-n2c(C(=O)NCc3ccccc3)c3n(c2=O)CCN(C(=O)c2ccc(Br)c(Cl)c2)C3)cc1 ; read by: PCR ; result: >5 µM
O=C(c1ccc(Br)c(Cl)c1)N1CCS(=O)(=O)C(c2ncc(Cc3ccccc3)s2)C1 ; read by: PCR ; result: 0.1–0.5 µM
O=C(c1ccc(Cl)c(Cl)c1)N1CCc2nn3c(c2C1)-c1noc(-c2ccccc2)c1CCC3 ; read by: PCR ; result: >10 µM
Cc1cc(C)n(-c2nc3c(c(=O)n2-c2cnc4c(ncn4C)n2)C[C@@H](C)N(C(=O)c2ccc(Br)c(C(F)(F)F)c2)C3)n1 ; strain or isolate: Genotype D ; read by: PCR ; result: ≤0.05 µM
C[C@@H]1Cc2nn3c(c2CN1C(=O)c1ccc(Cl)c(C#N)c1)C(=O)N([C@@H](C)c1cccc(OC(F)F)c1)CC3 ; read by: PCR ; result: 0.04 µM
CNC(=O)c1ccc(-n2c(-n3cc(CC(C)C)cn3)nc3c(c2=O)C[C@@H](C)N(C(=O)c2ccc(Br)c(C(F)(F)F)c2)C3)cc1 ; read by: PCR ; result: >0.05 µM
C=C1[C@@H](n2cnc3c(N)ncnc32)C[C@H](O)[C@]1(CO)CF ; read by: PCR ; result: >15.5 µM
COc1ccc(-n2c(=O)c3c(n4ncc(NC(=O)Cc5ccccc5)c24)CN(C(=O)c2ccc(Cl)c(Cl)c2)CC3)cc1 ; read by: PCR ; setting: 3 d ; result: >5 µM
C=C[C@H](C)Nc1nc2c(c(=O)n1-c1ccc(C(=O)N(C)C(=O)O[C@@H](OC(=O)[C@@H](N)C(C)C)C(C)C)cc1)C[C@@H](C)N(C(=O)c1ccc(Br)c(C(F)(F)F)c1)C2 ; strain or isolate: Genotype D ; read by: PCR ; result: <0.05 µM
CC(=O)Nc1ccc([C@@H](C)N2CCn3nc4c(c3C2=O)CN(C(=O)c2ccc(Cl)c(Cl)c2)[C@H](C)C4)cc1 ; read by: PCR ; result: 0.014 µM
C[C@@H]1Cc2nn3c(c2CN1C(=O)c1ccc(Cl)c(C#N)c1Cl)C(=O)N([C@@H](C)c1ccc(OC(F)F)cc1)CC3 ; read by: PCR ; result: 0.2 µM
Cc1cnn(-c2ccc(-n3c(=O)c4c(n5ncc(CC(C)C)c35)CN(C(=O)c3ccc(Br)c(C(F)(F)F)c3)[C@H](C)C4)cc2)n1 ; read by: luminescence ; result: ≤0.05 µM
Cc1cc(C)n(-c2nc3c(c(=O)n2-c2ccc4c(cnn4C)c2)C[C@@H](C)N(C(=O)c2ccc(Br)c(C(F)(F)F)c2)C3)n1 ; strain or isolate: Genotype D ; read by: PCR ; result: ≤0.05 µM
C[C@H]1Cc2c(n3ncc(CC4CCC4)c3n(-c3ccc(-c4n[nH]nc4N)cc3)c2=O)CN1C(=O)c1ccc(Br)c(C(F)(F)F)c1 ; read by: luminescence ; result: 0.05–0.5 µM
CC(C)CNc1cnn2c3c(c(=O)n(-c4ccccc4)c12)CCN(C(=O)c1ccc(Cl)c(Cl)c1)C3 ; read by: PCR ; setting: 3 d ; result: >5 µM
O=C(NCc1ccccc1)c1c2n(c(=O)n1-c1ccc(N3CCO[C@H](C(F)(F)F)C3)cc1)CCN(C(=O)c1ccc(Br)c(Cl)c1)C2 ; read by: PCR ; result: 0.1–0.5 µM
CNC(=O)c1ccc(-n2c(=O)c3c(n4ncc(NCc5ccc(F)cc5)c24)CN(C(=O)c2ccc(Br)c(C#N)c2)CC3)cc1 ; read by: PCR ; setting: 3 d ; result: 0.1–0.5 µM
C[C@H]1CS(=O)(=O)[C@](F)(c2ncc(Cc3ccccc3)s2)CN1C(=O)c1ccc(Br)c(Cl)c1 ; read by: PCR ; result: 0.1–0.5 µM
C[C@@H]1Cc2nn3c(c2CN1C(=O)c1ccc(Cl)c(Cl)c1)C(=O)N([C@@H](C)c1ccc(NS(C)(=O)=O)cc1)CC3 ; read by: PCR ; result: 0.045 µM
O=C(c1ccc(Cl)c(Cl)c1)N1CCc2c(n3ncc(NCc4ccccc4)c3n(-c3ccccc3)c2=O)C1 ; read by: PCR ; setting: 3 d ; result: 0.5–5 µM
C[C@@H]1Cc2nn3c(c2CN1C(=O)c1ccc(Br)c(C#N)c1)C(=O)N([C@@H](C)c1ccc(OC(F)(F)F)cc1)CC3 ; read by: PCR ; result: 0.017 µM

Repeating the final 4 entries:

C[C@H]1CS(=O)(=O)[C@](F)(c2ncc(Cc3ccccc3)s2)CN1C(=O)c1ccc(Br)c(Cl)c1 ; read by: PCR ; result: 0.1–0.5 µM
C[C@@H]1Cc2nn3c(c2CN1C(=O)c1ccc(Cl)c(Cl)c1)C(=O)N([C@@H](C)c1ccc(NS(C)(=O)=O)cc1)CC3 ; read by: PCR ; result: 0.045 µM
O=C(c1ccc(Cl)c(Cl)c1)N1CCc2c(n3ncc(NCc4ccccc4)c3n(-c3ccccc3)c2=O)C1 ; read by: PCR ; setting: 3 d ; result: 0.5–5 µM
C[C@@H]1Cc2nn3c(c2CN1C(=O)c1ccc(Br)c(C#N)c1)C(=O)N([C@@H](C)c1ccc(OC(F)(F)F)cc1)CC3 ; read by: PCR ; result: 0.017 µM

Neighbouring rows are from separate reports. a–b is a range or a potency band.